Experimental data published in paper PMC9452761.
Construct, isoform or probe ends are uncertain for at least one entry.

Key:
[1] = test system: His-Lon-His (Lon protease) (Burkholderia glumae BGR1); experiment: EMSA; conditions: 0.5 uM Lon, LightShift chemiluminescent EMSA (Pierce), biotin-labelled DNA, pH and temperature not given (as in Kim et al. 2007), recombinant protein, protein details: N- and C-terminal His (from the name), label: biotin
[2] = test system: GluR-His (Burkholderia glumae BGR1); experiment: EMSA; conditions: LightShift chemiluminescent EMSA (Pierce), biotin-labelled DNA; pH and temperature not given (as in Kim et al. 2007); recombinant protein; protein details: His tag; label: biotin

| Sequence | binding result ([1]; 1 nM labelled DNA, 50 nM unlabelled specific competitor) | binding result [2] | binding result ([1]; 0.5 nM labelled DNA, 25 nM unlabelled specific competitor) |
| --- | --- | --- | --- |
| ACCTCTGGTACTTGAACGAACCCGGCGAATATCGGGCGAACGAACTACGAAAAATCGGGTGGGTGGAGTATCCACTGAATTTCCGCGCCAAGTAAAGGAGTGTCTAACGAGCGGCTTTACTCAACATCGCAGCACGGGTAAATTTTGTAACCGACTGTTACTCGCAAAATCCCGCGCCCGTGCGCCCCTTCGTAATCGCGATAAGATGCCGCCCATGGA (double strand) [gluR putative promoter region] | binds |  |  |
| TGAGCGCGTTCACCTCGCAATTCCAGGCCTGGGCCGATGCCGCGCGCGACGGCGCCGCTCATACAAAGTGAGGTTTCGTGCGCCAAAAGTGCCGCGCGCGCGAGGCAGGCCGGCAAGAAGTTCGCCTGAGCAATCATGAGACTCGCACGAGGCCGTGCCCCGCCGTGCGCGAATCTCAAATCGGCATCATTGCTGAAGATTGCTCAGCCAAACTGAGAGTTCGAAAACGAGGCCCCGACTACATTGCTCGAACTGCGCCGCGATCCGGTGCCCAGGCAACAGCAAGGAGAGTCGCCTCATG (double strand) [hrpB putative promoter region] |  | binds | binds |
